Measured values published in patent publication US20200318163A1, “BIODEGRADATION OF TOXIC ORGANIC COMPOUNDS IN CONTAMINATED ENVIRONMENTS” (Metabolik Technologies Inc., priority 2019, published 2020).

Test system: isolated environmental strains (Pseudomonas spp., Rhodococcus sp.)
Experiment: Degradation of individual identified NA compounds by the five isolated strains (heat maps, FIG. 2B)
Settings: C16 and C18 at DBE=1

| Compound | degradation in all samples |
| --- | --- |
| CCCCCCCCCCCCCCCC(=O)O [palmitic acid] | high shown degradation |
| CCCCCCCCCCCCCCCCCC(=O)O [stearic acid] | high shown degradation |
